A mixed list of measured activities; the numbers were collected in NIAID ChemDB.

All rows: tests in culture; agent: Aspergillus fumigatus

MIC50, MIC90 and the like: level of inhibition, or share of isolates inhibited.

smiles,strain or isolate,method,read-out,result
C[C@H]1[C@H](O)[C@@H](C)/C=C/C=C/C=C/C=C/C=C/C=C/C=C/[C@H](O[C@@H]2O[C@H](C)[C@@H](O)[C@H](N)[C@@H]2O)C[C@@H]2O[C@](O)(C[C@@H](O)C[C@@H](O)CC[C@H](O)[C@@H](O)C[C@@H](O)CC(=O)O[C@H]1C)C[C@H](O)[C@H]2C(=O)O,MYA-32626,broth dilution,MIC,0.25 µg/mL
CCCCCCCCOc1ccc(-c2ccc(C(=O)NC3CC(NCCN)CNC(=O)[C@@H]4[C@@H](O)[C@@H](C)CN4C(=O)[C@@H](CO)NC(=O)[C@H]([C@H](O)Cc4ccccc4)NC(=O)[C@@H]4C[C@@H](O)CN4C(=O)[C@H]([C@@H](C)O)NC3=O)cc2)cc1,25 isolates,-,MIC90,0.5 µg/mL
Cc1nc(OCc2nc(-c3ccc(O)cc3)n[nH]2)c2ccccc2n1,MTCC 343,-,MIC100,50 µg/mL
COc1ccc(/C=C/C(=O)OC2CCN(CC(O)(Cn3cncn3)c3ccc(F)cc3F)CC2)cc1,0504656,broth dilution,MIC80,2.007 µM
CN(Cc1cccc2ccccc12)/N=C\c1ccc(F)cc1,-,-,MIC,>64 µg/mL
Oc1ccc(CCN=C=S)cc1,Rit 11,visual reading,MIC,4 µg/mL
COc1cc(NS(=O)(=O)c2ccc(N)cc2)ncn1,IFM 47450,-,MIC,32 µg/mL
CCCCCOc1ccc(-c2ccc(-c3ccc(C(=O)N[C@H]4C[C@@H](O)[C@@H](O)NC(=O)[C@@H]5[C@@H](O)[C@@H](C)CN5C(=O)[C@H]([C@H](C)O)NC(=O)[C@H]([C@H](O)[C@@H](O)c5ccc(O)cc5)NC(=O)[C@@H]5C[C@@H](O)CN5C(=O)[C@H]([C@H](C)O)NC4=O)cc3)cc2)cc1,10AF,-,MIC,>100 µg/mL
COc1ccc(-c2n[nH]c(COc3nc(C)nc4ccccc34)n2)cc1,MTCC 343,-,MIC100,25 µg/mL
Cc1ccc2nc(NC(=O)CSc3nnc(-c4ccc5ncccc5c4)o3)sc2c1,-,agar,MIC,100 µg/mL
CCOC(=O)c1sc(SC)cc1-c1ccc(-c2cccnc2)cc1,AF-27,-,MIC,50 µg/mL
COc1ccc(-c2n[nH]c(COc3ncnc4ccccc34)n2)cc1OC,MTCC 343,-,MIC100,25 µg/mL
O=C(Cc1ccccc1)OC1CCN(CC(O)(Cn2cncn2)c2ccc(F)cc2F)CC1,0504656,broth dilution,MIC80,2.192 µM
CSc1cc(-c2ccc(C)cc2)c(C(=O)O)s1,AF-27,-,MIC,>100 µg/mL
Cc1ccc(/C=N\N(C)Cc2cccc3ccccc23)cc1,-,-,MIC,>64 µg/mL
CCCCCCCCC(=O)OC1CCN(CC(O)(Cn2cncn2)c2ccc(F)cc2F)CC1,0504656,broth dilution,MIC80,2.154 µM
COc1cc(O)c2c(c1)C(=O)c1c(cc3c(c1O)-c1c(cc(C)c(C(=O)NC(CO)C(=O)O)c1O)[C@H](OC1OC(C)C(O)C(OC4OCC(O)C(O)C4O)C1O)C3O)C2=O,35 isolates,-,Geometric mean MFC,86.1 µg/mL
O=C(CSc1nnc(-c2ccc3ncccc3c2)o1)Nc1ccc(F)cc1,-,agar,MIC,50 µg/mL
C[C@@H](c1ncncc1F)[C@](O)(Cn1cncn1)c1ccc(F)cc1F,-,-,MIC90,0.2 µg/mL
O=C(CSc1nnc(-c2ccc3ncccc3c2)o1)Nc1nc2ccc(I)cc2s1,-,agar,MIC,100 µg/mL
O=C(/C=C/c1cccc(Br)c1)OC1CCN(CC(O)(Cn2cncn2)c2ccc(F)cc2F)CC1,0504656,broth dilution,MIC80,1.831 µM
C=C1CCN(C(C)C(O)(Cn2cncn2)c2ccc(F)cc2F)CC1,KA-01,-,MIC,0.2 µg/mL
Cc1nc(OCc2nc(-c3ccc(Br)cc3)n[nH]2)c2ccccc2n1,MTCC 343,-,MIC100,25 µg/mL
O=C(CSc1nnc(-c2ccc3ncccc3c2)o1)Nc1ccc(I)cc1,-,agar,MIC,100 µg/mL
CCC(C)CC(C)CCCCCCCCC(=O)N[C@H]1C[C@@H](O)[C@H](NCCN)NC(=O)[C@@H]2[C@@H](O)CCN2C(=O)[C@H]([C@H](O)CCN)NC(=O)[C@H]([C@H](O)[C@@H](O)c2ccc(O)cc2)NC(=O)[C@@H]2C[C@@H](O)CN2C(=O)[C@H]([C@@H](C)O)NC1=O,26 isolates,-,Geometric mean MEC,0.29 µg/mL
CCC(C)CCCCCCCCC1CC(=O)NCC(=O)N[C@@H](CCCN)C(=O)N[C@@H](C(C)C)C(=O)N1,TIMM0063,-,MIC,>80 µg/mL
Cc1ccccc1/C=N\N(C)Cc1cccc2ccccc12,-,-,MIC,>64 µg/mL
O=C(OC1CCN(CC(O)(Cn2cncn2)c2ccc(F)cc2F)CC1)C(F)(F)F,0504656,broth dilution,MIC80,147 µM
CN(Cc1cccc2ccccc12)/N=C\c1ccccc1Cl,-,-,MIC,>64 µg/mL
Cc1ccc(C(C)C)c(O)c1,F17,-,MIC,0.16 µg/mL
CC1S[C@H](c2ccc3c(c2)OCO3)N(c2nc(N3CCN(C)CC3)n[nH]2)C1=O,168.95,broth dilution,MIC,10 µg/mL
CN(Cc1cccc2ccccc12)/N=C\Cc1ccccc1,-,-,MIC,>64 µg/mL
C[C@H]1[C@H](O)[C@@H](C)/C=C/C=C/C=C/C=C/C=C/C=C/C=C/[C@H](O[C@@H]2O[C@H](C)[C@@H](O)[C@H](N)[C@@H]2O)C[C@@H]2O[C@](O)(C[C@@H](O)C[C@@H](O)CC[C@H](O)[C@@H](O)C[C@@H](O)CC(=O)O[C@H]1C)C[C@H](O)[C@H]2C(=O)O,50 strains,-,Mean MIC,0.63 µg/mL
CCCCCOc1ccc(-c2cc(-c3ccc(C(=O)N[C@H]4C[C@@H](O)[C@@H](O)NC(=O)[C@@H]5[C@@H](O)[C@@H](C)CN5C(=O)[C@H]([C@H](O)CC(N)=O)NC(=O)[C@H]([C@H](O)[C@@H](O)c5ccc(O)c(OS(=O)(=O)O)c5)NC(=O)[C@@H]5C[C@@H](O)CN5C(=O)[C@H]([C@@H](C)O)NC4=O)cc3)no2)cc1,25 isolates,-,MIC90,0.06 µg/mL
Nc1ccc(S(=O)(=O)Nc2ccnn2-c2ccccc2)cc1,IFM 48051,-,MIC,64 µg/mL
CC(C)CC(O)C(=O)O,MRCM 32221,broth dilution / visual reading,MFC100,36000 µg/mL
O=C(/C=C/c1ccccc1Br)OC1CCN(CC(O)(Cn2cncn2)c2ccc(F)cc2F)CC1,0504656,broth dilution,MIC80,1.831 µM
CCOC(=O)c1sc2cc(-c3ccc([N+](=O)[O-])cc3)oc(=O)c2c1N,AF-27,-,MIC,>100 µg/mL
COc1ccc(NS(=O)(=O)c2ccc(N)cc2)nn1,IFM 53412,-,MIC,≥256 µg/mL
CC(C)C[C@H](N)C(=O)O,MRCM 32208,broth dilution,MFC100,>18000 µg/mL
CCC(C)n1ncn(-c2ccc(N3CCN(c4ccc(OC[C@H]5CO[C@](Cn6cncn6)(c6ccc(Cl)cc6Cl)O5)cc4)CC3)cc2)c1=O,Clinical isolates,-,MIC,2 µg/mL
O=C(/C=C/c1cccc(F)c1)OC1CCN(CC(O)(Cn2cncn2)c2ccc(F)cc2F)CC1,0504656,broth dilution,MIC80,2.057 µM
COc1cc(NS(=O)(=O)c2ccc(N)cc2)nc(OC)n1,IFM 48051,-,MIC,128 µg/mL
CCOC(=O)c1sc2cc(-c3ccc(OC)cc3)oc(=O)c2c1N,AF-27,-,MIC,>100 µg/mL
CN1CCN(c2n[nH]c(N3C(=O)CS[C@@H]3c3ccc4c(c3)OCO4)n2)CC1,119,broth dilution,MIC,50 µg/mL
C[C@H]1[C@H](O)[C@@H](C)/C=C/C=C/C=C/C=C/C=C/C=C/C=C/[C@H](O[C@@H]2O[C@H](C)[C@@H](O)[C@H](N)[C@@H]2O)C[C@@H]2O[C@](O)(C[C@@H](O)C[C@@H](O)CC[C@H](O)[C@@H](O)C[C@@H](O)CC(=O)O[C@H]1C)C[C@H](O)[C@H]2C(=O)O,29 isolates,-,MIC90,1 µg/mL
FC(F)(F)c1nc(OCc2nc(-c3ccccc3)n[nH]2)c2ccccc2n1,MTCC 343,-,MIC100,25 µg/mL
CC(C)CCCCCCCCCC1CC(=O)NCC(=O)N[C@@H](CCCCN)C(=O)N[C@@H](C(C)C)C(=O)N1,IFM4942,-,MIC,>80 µg/mL
NCCNC(=O)C1=Nc2ccc(NC(=O)C3=Nc4ccc(C(=O)Nc5ccc6[nH]c(C(=O)NCCN)cc6c5)cc4C3)cc2C1,-,-,MFC,>25 µg/mL
CC1=CC[C@@H]2[C@H](C1)C2(C)C,ATCC 46645,-,MLC,0.32 µg/mL

Repeating the final 3 entries:

smiles	strain or isolate	method	read-out	result
CC(C)CCCCCCCCCC1CC(=O)NCC(=O)N[C@@H](CCCCN)C(=O)N[C@@H](C(C)C)C(=O)N1	IFM4942	-	MIC	>80 µg/mL
NCCNC(=O)C1=Nc2ccc(NC(=O)C3=Nc4ccc(C(=O)Nc5ccc6[nH]c(C(=O)NCCN)cc6c5)cc4C3)cc2C1	-	-	MFC	>25 µg/mL
CC1=CC[C@@H]2[C@H](C1)C2(C)C	ATCC 46645	-	MLC	0.32 µg/mL

Lines come from different laboratories, so protocols vary. Blank or dashed fields: not listed here.